Reference: paper PMC9286511, “Global protein dynamics as communication sensors in peptide synthetase domains” (2022)

Target: cyclization domain Cy1 of HMWP2, wild type (Yersinia pestis)
Assay: NMR titration

“salicylate-loaded thiolation domain T1 of HMWP2 (domain or fragment)” showed a population of the Cy1 minor conformer with loaded-T1 of 11%.
